From the NIST ThermoML archive (doi:10.1016/j.jct.2018.12.036)
± gives the expanded uncertainty stated by the source.

Columns and labels:
[1] = Plate method
[2] = xn = mol fraction of the nth substance listed; conditions: Plate method

CCCCOP(=O)(OCCCC)OCCCC [tributyl phosphate]
[1]
Conditions | surface tension liquid-gas [mN/m]
293.15 K | 27.79 ± 0.42
298.15 K | 27.42 ± 0.42
303.15 K | 27.05 ± 0.42
308.15 K | 26.69 ± 0.42
313.15 K | 26.35 ± 0.42
318.15 K | 26.02 ± 0.42
323.15 K | 25.66 ± 0.42

CCCCOP(=O)(OCCCC)OCCCC [tributyl phosphate] + CCCC[n+]1ccn(C)c1.O=S(=O)([N-]S(=O)(=O)C(F)(F)F)C(F)(F)F
surface tension liquid-gas [mN/m], [2]
Conditions | 293.15 K | 298.15 K | 303.15 K | 308.15 K | 313.15 K | 318.15 K | 323.15 K
x2 = 0.0659 | 28.15 ± 0.44 | 27.8 ± 0.44 | 27.46 ± 0.44 | 27.12 ± 0.44 | 26.78 ± 0.44 | 26.44 ± 0.44 | 26.08 ± 0.44
x2 = 0.137 | 28.48 ± 0.43 | 28.15 ± 0.43 | 27.82 ± 0.43 | 27.5 ± 0.43 | 27.19 ± 0.43 | 26.85 ± 0.43 | 26.51 ± 0.43
x2 = 0.2139 | 28.79 ± 0.43 | 28.45 ± 0.43 | 28.13 ± 0.43 | 27.84 ± 0.43 | 27.53 ± 0.43 | 27.2 ± 0.43 | 26.87 ± 0.43
x2 = 0.2974 | 29.06 ± 0.43 | 28.73 ± 0.43 | 28.43 ± 0.43 | 28.15 ± 0.43 | 27.84 ± 0.43 | 27.53 ± 0.43 | 27.2 ± 0.43
x2 = 0.3884 | 29.35 ± 0.43 | 29.06 ± 0.43 | 28.76 ± 0.43 | 28.43 ± 0.43 | 28.17 ± 0.43 | 27.9 ± 0.43 | 27.6 ± 0.43
x2 = 0.4879 | 29.63 ± 0.43 | 29.37 ± 0.43 | 29.12 ± 0.43 | 28.84 ± 0.43 | 28.56 ± 0.43 | 28.25 ± 0.43 | 27.96 ± 0.43
x2 = 0.5971 | 29.9 ± 0.43 | 29.61 ± 0.43 | 29.38 ± 0.43 | 29.08 ± 0.43 | 28.84 ± 0.43 | 28.55 ± 0.43 | 28.28 ± 0.43
x2 = 0.7175 | 30.19 ± 0.43 | 29.91 ± 0.43 | 29.64 ± 0.43 | 29.37 ± 0.43 | 29.11 ± 0.43 | 28.89 ± 0.43 | 28.61 ± 0.43
x2 = 0.8511 | 30.64 ± 0.44 | 30.35 ± 0.44 | 30.12 ± 0.44 | 29.85 ± 0.44 | 29.59 ± 0.44 | 29.41 ± 0.44 | 29.16 ± 0.44
x2 = 0.9235 | 31.19 ± 0.51 | 31.01 ± 0.52 | 30.78 ± 0.52 | 30.55 ± 0.52 | 30.29 ± 0.53 | 30.05 ± 0.52 | 29.82 ± 0.53
x2 = 0.9843 | 32.55 ± 0.56 | 32.35 ± 0.55 | 32.12 ± 0.55 | 31.89 ± 0.55 | 31.7 ± 0.6 | 31.49 ± 0.57 | 31.31 ± 0.58

CCCCOP(=O)(OCCCC)OCCCC [tributyl phosphate] + CCCCn1cc[n+](C)c1.F[B-](F)(F)F
surface tension liquid-gas [mN/m], [2]
Conditions | 293.15 K | 298.15 K | 303.15 K | 308.15 K | 313.15 K | 318.15 K | 323.15 K
x2 = 0 | 27.79 ± 0.42 | 27.42 ± 0.42 | 27.05 ± 0.42 | 26.69 ± 0.42 | 26.35 ± 0.42 | 26.02 ± 0.42 | 25.66 ± 0.42
x2 = 0.1158 | 28.22 ± 0.43 | 27.87 ± 0.43 | 27.56 ± 0.43 | 27.2 ± 0.43 | 26.84 ± 0.43 | 26.51 ± 0.43 | 26.12 ± 0.43
x2 = 0.2275 | 28.61 ± 0.43 | 28.27 ± 0.43 | 27.92 ± 0.43 | 27.57 ± 0.43 | 27.21 ± 0.43 | 26.89 ± 0.43 | 26.54 ± 0.43
x2 = 0.3355 | 28.88 ± 0.43 | 28.56 ± 0.43 | 28.21 ± 0.43 | 27.84 ± 0.43 | 27.51 ± 0.43 | 27.17 ± 0.43 | 26.84 ± 0.43
x2 = 0.4399 | 29.21 ± 0.43 | 28.91 ± 0.43 | 28.52 ± 0.43 | 28.16 ± 0.43 | 27.79 ± 0.43 | 27.48 ± 0.43 | 27.22 ± 0.43
x2 = 0.5409 | 29.48 ± 0.43 | 29.19 ± 0.43 | 28.84 ± 0.43 | 28.47 ± 0.43 | 28.12 ± 0.43 | 27.81 ± 0.43 | 27.48 ± 0.43
x2 = 0.6387 | 29.89 ± 0.44 | 29.54 ± 0.44 | 29.24 ± 0.44 | 28.91 ± 0.44 | 28.49 ± 0.43 | 28.22 ± 0.43 | 27.89 ± 0.43
x2 = 0.7333 | 30.32 ± 0.44 | 30.04 ± 0.44 | 29.71 ± 0.44 | 29.34 ± 0.44 | 28.97 ± 0.44 | 28.69 ± 0.44 | 28.37 ± 0.44
x2 = 0.825 | 30.97 ± 0.49 | 30.68 ± 0.48 | 30.35 ± 0.49 | 30 ± 0.48 | 29.64 ± 0.49 | 29.38 ± 0.49 | 29.02 ± 0.49
x2 = 0.9138 | 32.38 ± 0.7 | 32.05 ± 0.67 | 31.79 ± 0.68 | 31.39 ± 0.68 | 31.07 ± 0.69 | 30.79 ± 0.68 | 30.48 ± 0.71
x2 = 0.9572 | 34.89 ± 1.7 | 34.57 ± 1.7 | 34.28 ± 1.7 | 34.01 ± 1.7 | 33.74 ± 1.7 | 33.38 ± 1.7 | 33 ± 1.7
x2 = 0.9915 | 38.98 ± 1.1 | 38.61 ± 1.1 | 38.31 ± 1.1 | 38.09 ± 1.1 | 37.73 ± 1.1 | 37.46 ± 1.1 | 37.14 ± 1.1

CCCCOP(=O)(OCCCC)OCCCC [tributyl phosphate] + CCCCn1cc[n+](C)c1.F[P-](F)(F)(F)(F)F
surface tension liquid-gas [mN/m], [2]
Conditions | 293.15 K | 298.15 K | 303.15 K | 308.15 K | 313.15 K | 318.15 K | 323.15 K
x2 = 0.0943 | 28.63 ± 0.45 | 28.24 ± 0.45 | 27.89 ± 0.45 | 27.61 ± 0.45 | 27.29 ± 0.45 | 26.92 ± 0.45 | 26.53 ± 0.45
x2 = 0.1898 | 29.18 ± 0.44 | 28.85 ± 0.44 | 28.46 ± 0.44 | 28.18 ± 0.44 | 27.88 ± 0.44 | 27.53 ± 0.44 | 27.15 ± 0.44
x2 = 0.2866 | 29.66 ± 0.44 | 29.34 ± 0.44 | 28.99 ± 0.44 | 28.65 ± 0.43 | 28.34 ± 0.43 | 28.03 ± 0.43 | 27.68 ± 0.43
x2 = 0.3845 | 30.11 ± 0.44 | 29.77 ± 0.44 | 29.41 ± 0.44 | 29.07 ± 0.44 | 28.79 ± 0.44 | 28.47 ± 0.44 | 28.11 ± 0.43
x2 = 0.4838 | 30.61 ± 0.44 | 30.25 ± 0.44 | 29.92 ± 0.44 | 29.65 ± 0.44 | 29.31 ± 0.44 | 28.97 ± 0.44 | 28.62 ± 0.44
x2 = 0.5843 | 31.12 ± 0.44 | 30.76 ± 0.44 | 30.43 ± 0.44 | 30.15 ± 0.44 | 29.83 ± 0.44 | 29.51 ± 0.44 | 29.16 ± 0.44
x2 = 0.6862 | 31.62 ± 0.44 | 31.29 ± 0.44 | 30.95 ± 0.44 | 30.69 ± 0.44 | 30.36 ± 0.44 | 30.03 ± 0.44 | 29.7 ± 0.44
x2 = 0.7894 | 32.09 ± 0.44 | 31.76 ± 0.44 | 31.44 ± 0.44 | 31.14 ± 0.44 | 30.85 ± 0.44 | 30.53 ± 0.44 | 30.16 ± 0.44
x2 = 0.894 | 32.5 ± 0.61 | 32.17 ± 0.59 | 31.86 ± 0.59 | 31.59 ± 0.59 | 31.27 ± 0.59 | 30.95 ± 0.59 | 30.61 ± 0.62
x2 = 0.9574 | 35.96 ± 1.1 | 35.67 ± 1.2 | 35.35 ± 1.2 | 35.06 ± 1.2 | 34.81 ± 1.2 | 34.57 ± 1.2 | 34.29 ± 1.2
x2 = 0.9893 | 37.54 ± 0.69 | 37.34 ± 0.71 | 37.07 ± 0.73 | 36.81 ± 0.73 | 36.49 ± 0.72 | 36.23 ± 0.71 | 35.95 ± 0.71
